Pooled drug test results. Numbers come from NIAID ChemDB, via PubChem.

All rows: whole-cell or culture tests; agent: Human cytomegalovirus; cell line: HFF; measure: EC50

An empty or dashed field is not shown. Lines come from different laboratories, so protocols vary. ECn: concentration that inhibits the pathogen or its effect by n%.

{"smiles": "Nc1nc2c(ncn2COC(CO)CO)c(=O)[nH]1", "strain or isolate": "EC", "method": "plaque count", "value": "9.7 µM"}
{"smiles": "Nc1cn(C=C2C[C@H]2CO)c(=O)[nH]c1=O", "strain or isolate": "TOWNE", "method": "plaque count", "value": ">100 µM"}
{"smiles": "CN1CCN(n2cc(C(=O)NCc3ccc(Cl)cc3)c(=O)c3cc(CN4CCOCC4)ccc32)CC1", "strain or isolate": "DAVIS", "method": "plaque count", "value": "1.2 µM"}
{"smiles": "Nc1nc(OCC2CC2)c2ncn(/C=C3/C[C@@H]3CO)c2n1", "method": "plaque count", "value": "1.7 µM"}
{"smiles": "COC(=O)[C@H](Cc1ccccc1)Nc1nc2ccc(NC(=O)C3CCC3)c(C)c2c(=O)o1", "method": "ELISA", "value": ">100 µM"}
{"smiles": "Nc1nc2c(ncn2COC(CO)CO)c(=O)[nH]1", "strain or isolate": "TOWNE", "method": "plaque count", "value": "8.7 µM"}
{"smiles": "Nc1nc(NCC2CC2)c2ncn(/C=C3/C[C@@H]3CO)c2n1", "method": "plaque count", "value": "52 µM"}
{"smiles": "Nc1nc(NCC2CC2)c2ncn(/C=C3/C[C@@H]3CO)c2n1", "method": "plaque count", "value": "52 µM"}
{"smiles": "Nc1nc2c(ncn2C[C@@H]2CC[C@@H](P(=O)(O)O)O2)c(=O)[nH]1", "strain or isolate": "D-10 C4 (BDCRB-resistant)", "method": "plaque count", "value": "0.07 µg/mL"}
{"smiles": "CCCCCCCC/C=C\\CCCCCCCCOCCOP(=O)(O)CCCOCn1cnc2c(=O)[nH]c(N)nc21", "strain or isolate": "AD169", "method": "plaque count", "value": "0.59 µM"}
{"smiles": "COc1cc(OC)c(NC(=S)Nc2ccc(NC=O)cc2Cl)cc1Cl", "strain or isolate": "AD169", "method": "ELISA", "value": "30.7 µg/mL"}
{"smiles": "O=c1[nH]c(=O)n([C@H]2C[C@H](O)[C@@H](CO)O2)cc1/C=C/I", "method": "cytopathic effect", "value": "116 µM"}
{"smiles": "Cn1cc(C(=O)NCc2ccc(Cl)cc2)c(=O)c2cc(CN3CCOCC3)ccc21", "strain or isolate": "TOWNE", "method": "plaque count", "value": "2.1 µM"}
{"smiles": "OC[C@H]1O[C@@H](n2c(Br)nc3cc(Cl)c(Cl)cc32)C[C@@H]1O", "strain or isolate": "TOWNE", "method": "plaque count", "value": "35 µM"}
{"smiles": "CCCSc1nc(N)nc2c1ncn2/C=C1/C[C@@H]1CO", "method": "plaque count", "value": "3 µM"}
{"smiles": "Nc1ccn(C[C@@H](CO)OCP(=O)(O)O)c(=O)n1", "strain or isolate": "TOWNE", "method": "plaque count", "value": "0.16 µg/mL"}
{"smiles": "Cc1cn([C@@H]2O[C@H](CO)[C@H]2CO)c(=O)[nH]c1=O", "strain or isolate": "TOWNE", "method": "plaque count", "value": ">100 µg/mL"}
{"smiles": "Nc1nc(NC2CC2)c2ncn(C=C3CC3CO)c2n1", "strain or isolate": "AD169", "method": "plaque count", "value": "2.4 µM"}
{"smiles": "Nc1ccn([C@@]23C[C@H](O)[C@@H](CO)[C@@H]2C3)c(=O)n1", "method": "plaque count", "value": "88.9 µg/mL"}
{"smiles": "CC[C@@]1(Cl)C(=O)NC(=O)N([C@H]2C[C@H](O)[C@@H](CO)O2)[C@H]1OC", "strain or isolate": "AD169", "method": "cytopathic effect", "value": "0.04 µM"}
{"smiles": "CCCSc1nc(N)nc2c1ncn2/C=C1/C[C@@H]1CO", "method": "plaque count", "value": "3 µM"}
{"smiles": "CCCCCCCCCCCCCCCCOCCCOP(=O)(O)CCCOCn1cnc2c(NC3CC3)nc(N)nc21", "strain or isolate": "AD169", "method": "plaque count", "value": "1.6 µM"}
{"smiles": "Nc1nc2ncn(/C=C3\\C(F)C3(CO)CO)c2c(=O)[nH]1", "strain or isolate": "AD169", "method": "cytopathic effect", "value": ">300 µM"}
{"smiles": "Nc1nc2c(ncn2COC(CO)CO)c(=O)[nH]1", "strain or isolate": "TOWNE", "method": "virus yield", "value": "<1.6 µM"}
{"smiles": "Cc1c(CNC(=O)OC(C)(C)C)ccc2nc(NC3(C(=O)N(C)C)CC3)oc(=O)c12", "method": "ELISA", "value": "100 µM"}
{"smiles": "O[C@@H]1[C@H](O)[C@H](O)CO[C@H]1n1c(Br)nc2cc(Cl)c(Cl)cc21", "strain or isolate": "C9208/3-3-1", "method": "plaque count", "value": "2 µM"}
{"smiles": "OC[C@H]1O[C@@H](n2c(Cl)nc3cc(Cl)c(Cl)cc32)C[C@@H]1O", "strain or isolate": "TOWNE", "method": "plaque count", "value": "20 µM"}
{"smiles": "CC[C@]1(Br)C(=O)NC(=O)N([C@H]2C[C@H](O)[C@@H](CO)O2)[C@@H]1OC", "strain or isolate": "AD169", "method": "cytopathic effect", "value": ">50 µM"}
{"smiles": "Clc1ccc(Nc2ncnc3ccccc23)cc1Cl", "strain or isolate": "AD169", "method": "plaque count", "value": ">3 µM"}
{"smiles": "C=CCOc1nc(N)nc2c1ncn2/C=C1/C[C@@H]1CO", "method": "plaque count", "value": "2.1 µM"}
{"smiles": "C[C@H]1O[C@@H](n2c(Br)nc3cc(Cl)c(Cl)cc32)[C@H](O)[C@@H]1O", "strain or isolate": "Isolate C4 mutations D344E + Q204R", "method": "virus yield", "value": "<3 µM"}
{"smiles": "Nc1nc2c(ncn2COCCO)c(=O)[nH]1", "strain or isolate": "AD169", "method": "cytopathic effect", "value": "0.75 µM"}
{"smiles": "C#CCNc1nc(N)nc2c1ncn2/C=C1/C[C@@H]1CO", "method": "plaque count", "value": "2.6 µM"}
{"smiles": "Nc1nc(N)c2ncn(C34CCC(O)C3(CO)C4)c2n1", "method": "plaque count", "value": ">20 µg/mL"}
{"smiles": "Nc1nc(N)c2ncn(COCCCP(=O)(O)O)c2n1", "strain or isolate": "AD169", "method": "plaque count", "value": ">100 µM"}
{"smiles": "CC(NC(=S)Nc1ccc(NC(=O)c2nccc3ccccc23)cc1)c1cc2ccccc2o1", "strain or isolate": "AD169", "method": "ELISA", "value": ">10 µg/mL"}
{"smiles": "Cc1ccc2ncnc(Nc3ccc(Br)cc3)c2c1", "strain or isolate": "AD169", "method": "plaque count", "value": ">3 µM"}
{"smiles": "O[C@@H]1[C@H](O)CO[C@H]1n1c(Br)nc2cc(Cl)c(Cl)cc21", "strain or isolate": "TOWNE", "method": "virus yield", "value": "<0.06 µM"}
{"smiles": "C=CCOc1nc(N)nc2c1ncn2/C=C1/C[C@@H]1CO", "method": "plaque count", "value": "2.1 µM"}
{"smiles": "Nc1nc2c(ncn2C=C2CC2CO)c(=O)[nH]1", "strain or isolate": "TOWNE", "method": "plaque count", "value": "11.6 µM"}
{"smiles": "Cc1ccc(Cn2c(N)c(C#N)c3c(N)ncnc32)cc1", "strain or isolate": "TOWNE", "method": "plaque count", "value": "0.8 µM"}
{"smiles": "CCCCCCCCCCCCCCCCCCOCCOP(=O)(O)CCCOCn1cnc2c(=O)[nH]c(N)nc21", "strain or isolate": "AD169", "method": "plaque count", "value": "0.48 µM"}
{"smiles": "O=c1[nH]c(=O)n([C@H]2C[C@H](O)[C@@H](CO)O2)cc1I", "method": "cytopathic effect", "value": "154 µM"}
{"smiles": "C[C@@H](Nc1nc2ccc(Cl)cc2c(=O)o1)c1ccccc1", "method": "ELISA", "value": "42 µM"}
{"smiles": "O=c1ccn([C@H]2C[C@H](O)[C@]3(CO)C[C@H]23)c(=O)[nH]1", "method": "cytopathic effect", "value": ">100 µg/mL"}
{"smiles": "CC(=O)O[C@H]1[C@H](n2c(Cl)nc3cc(Cl)c(Cl)cc32)OC[C@H]1OC(C)=O", "strain or isolate": "TOWNE", "method": "virus yield", "value": "<0.1 µM"}
{"smiles": "OC[C@H]1O[C@@H](n2c(Br)nc3cc(Cl)c(Cl)cc32)[C@H](O)[C@@H]1O", "strain or isolate": "VR4955R (drug-resistant)", "method": "plaque count", "value": "2.8 µM"}
{"smiles": "OC[C@H]1O[C@@H](n2c(SCc3ccccc3)nc3cc(Cl)c(Cl)cc32)C[C@@H]1O", "strain or isolate": "TOWNE", "method": "plaque count", "value": ">100 µM"}
{"smiles": "Nc1nc2c(ncn2/C=C2/CC2(CO)CO)c(=O)[nH]1", "strain or isolate": "C8914-6 ganciclovir- and foscarnet-resistant", "method": "plaque count", "value": "9.9 µM"}
{"smiles": "Nc1nc(NC2CC2)c2ncn(/C=C3/C[C@@H]3CO)c2n1", "method": "plaque count", "value": "1.9 µM"}
{"smiles": "Nc1nc2cc(Cl)c(Cl)cc2n1[C@H]1C[C@H](O)[C@@H](CO)O1", "strain or isolate": "TOWNE", "method": "plaque count", "value": "30 µM"}
{"smiles": "Nc1nc2c(ncn2COC(CO)CO)c(=O)[nH]1", "strain or isolate": "AD169", "method": "cytopathic effect", "value": "1.8 µM"}
{"smiles": "Nc1nc(OCC2CC2)c2ncn(/C=C3/C[C@@H]3CO)c2n1", "method": "plaque count", "value": "1.7 µM"}
{"smiles": "O=C(NCc1ccc(Cl)cc1)c1cn2c3c(cc(CN4CCOCC4)cc3c1=O)OC(c1cccnc1)C2", "strain or isolate": "C8805/37-1-1 (ganciclovir-resistant)", "method": "plaque count", "value": "3.9 µM"}
{"smiles": "COc1cc(OC)c(NC(=S)Nc2ccc(NC(C)=O)cc2)cc1Cl", "strain or isolate": "AD169", "value": "0.037 µM"}
{"smiles": "CN(C)c1cccc(CCNC(=S)Nc2ccc(NC(=O)c3ccccc3F)cc2)c1C(F)(F)F", "method": "virus yield", "value": ">0.5 µg/mL"}
{"smiles": "Nc1cn(/C=C2/C[C@H]2CO)c(=O)[nH]c1=O", "strain or isolate": "TOWNE", "method": "plaque count", "value": "28.5 µM"}
{"smiles": "Cn1cc(C(=O)NCc2ccc(Cl)cc2)c(=O)c2cc(CN3CCOCC3)ccc21", "strain or isolate": "SA", "method": "plaque count", "value": "1.6 µM"}
{"smiles": "COC(C)c1cn([C@H]2C[C@H](O)[C@@H](CO)O2)c(=O)[nH]c1=O", "strain or isolate": "AD169", "method": "cytopathic effect", "value": "0.9 µM"}
{"smiles": "Cc1ccc2ncnc(Nc3ccc(Cl)c(Cl)c3)c2c1", "strain or isolate": "AD169", "method": "plaque count", "value": ">3 µM"}
{"smiles": "OC[C@H]1O[C@@H](n2c(Br)nc3cc(Cl)c(Cl)cc32)[C@H](O)[C@@H]1O", "strain or isolate": "Isolate B11 mutation D344E", "method": "plaque count", "value": "12 µM"}
{"smiles": "C=Cc1cn([C@H]2C[C@H](OC(=O)C3=CN(C)C=CC3)[C@@H](CO)O2)c(=O)[nH]c1=O", "method": "cytopathic effect", "value": "76.5 µM"}
{"smiles": "Nc1ncnc2c1ncn2C=C1CC1CO", "strain or isolate": "AD169", "method": "cytopathic effect", "value": "1 µM"}
{"smiles": "O=C(Nc1ccc(NC(=S)NCCc2cc3ccccc3o2)cc1)c1cc2ccccc2o1", "method": "virus yield", "value": ">10 µg/mL"}
{"smiles": "COC(=O)C(C)NP(=O)(OC[C@@H]1C/C1=C\\n1cc(N)c(=O)[nH]c1=O)Oc1ccccc1", "strain or isolate": "AD169", "method": "cytopathic effect", "value": ">60 µM"}
{"smiles": "Nc1nc2c(ncn2COC(CO)CO)c(=O)[nH]1", "strain or isolate": "AD169", "method": "plaque count", "value": "3.8 µM"}
{"smiles": "CCc1cn([C@H]2C[C@H](O)[C@@H](CO)O2)c(=O)[nH]c1=O", "strain or isolate": "AD169", "method": "cytopathic effect", "value": ">170 µM"}

For reference, 8 entries again:

smiles,strain or isolate,method,value
CCCSc1nc(N)nc2c1ncn2/C=C1/C[C@@H]1CO,-,plaque count,3 µM
COC(=O)[C@H](Cc1ccccc1)Nc1nc2ccc(NC(=O)C3CCC3)c(C)c2c(=O)o1,-,ELISA,>100 µM
Cc1cn([C@@H]2O[C@H](CO)[C@H]2CO)c(=O)[nH]c1=O,TOWNE,plaque count,>100 µg/mL
C=Cc1cn([C@H]2C[C@H](OC(=O)C3=CN(C)C=CC3)[C@@H](CO)O2)c(=O)[nH]c1=O,-,cytopathic effect,76.5 µM
OC[C@H]1O[C@@H](n2c(Br)nc3cc(Cl)c(Cl)cc32)[C@H](O)[C@@H]1O,Isolate B11 mutation D344E,plaque count,12 µM
C#CCNc1nc(N)nc2c1ncn2/C=C1/C[C@@H]1CO,-,plaque count,2.6 µM
CC[C@]1(Br)C(=O)NC(=O)N([C@H]2C[C@H](O)[C@@H](CO)O2)[C@@H]1OC,AD169,cytopathic effect,>50 µM
Nc1ccn([C@@]23C[C@H](O)[C@@H](CO)[C@@H]2C3)c(=O)n1,-,plaque count,88.9 µg/mL